Pooled drug test results. Numbers come from NIAID ChemDB, via PubChem.

Shared fields: host cell toxicity; cells: MT-4; endpoint: CC50

a–b is a range or a potency band.

| SMILES | read by | result |
|---|---|---|
| Cc1ccccc1NC(=O)CSc1nncnc1-c1ccccc1Cl | MTT | 142 µM |
| Cc1cc(C)cc(-c2cc(C)c(Nc3ccnc(Nc4ccc(C#N)cc4)n3)c(C)c2)c1 | MTT | 2.08 µM |
| CCC(C)Oc1nc(Cc2ccccc2)cc(=O)[nH]1 | - | 344 µM |
| Cc1cn([C@H]2C[C@H](N=[N+]=[N-])[C@@H](CO)O2)c(=O)[nH]c1=O | - | 1 µg/mL |
| CCc1c(Cc2ccccc2)nc(OC)[nH]c1=O | - | 323 µM |
| Cc1cn([C@H]2CC[C@@H](CO)O2)c(=O)[nH]c1=O | - | >500 µM |
| CCCCCOc1nc(Cc2ccccc2)c(C)c(=O)[nH]1 | - | 195 µM |
| CC1(C)S[C@H]([C@H](NC(=O)Cc2ccccc2)C(=O)NCc2ccccc2)N[C@H]1C(=O)NCCNC(=O)[C@@H]1N[C@@H]([C@H](NC(=O)Cc2ccccc2)C(=O)NCc2ccccc2)SC1(C)C | - | ≥100 µM |
| C(=N\c1nc2ccccc2s1)/c1ccccc1 | MTT | >100 µM |
| CC(=O)OCC1=C[C@H]2[C@@H]3C(C)(C)[C@]3(OC(C)=O)[C@H](OC(C)=O)[C@@H](C)[C@]2(O)[C@@H]2C=C(C)C(=O)[C@]2(OC(C)=O)C1 | - | >500 µg/mL |
| CC(C)(C)OC(=O)NCCCCCCNC(=O)/C=C/c1cn([C@H]2C=C[C@@H](CO)O2)c(=O)[nH]c1=O | - | 66 µM |
| CCOCn1c(Sc2cccc3ccccc23)c(C)c(=O)[nH]c1=O | MTT | 39.6 µM |
| Cc1cn([C@H]2C=C[C@@H](CO)O2)c(=O)[nH]c1=O | MTT | 314 µM |
| CC1(C)S[C@H]([C@H](NC(=O)Cc2ccccc2)C(=O)NCc2ccccc2)N[C@H]1C(=O)NCCCNC(=O)[C@@H]1N[C@@H]([C@H](NC(=O)Cc2ccccc2)C(=O)NCc2ccccc2)SC1(C)C | - | ≥100 µM |
| CCOP(=O)(OC[C@@H]1C=C[C@H](n2cc(C)c(=O)[nH]c2=O)O1)C(=O)NC | MTT | 88.4 µM |
| N#Cc1ccc(Nc2nccc(C(O)c3cccc4ccccc34)n2)cc1 | MTT | 6.5 µM |
| O=c1[nH]c(=O)n([C@H]2C[C@H](F)[C@@H](CO)O2)cc1CO | - | 134 µM |
| CC(C)c1c(Sc2cccc3ccccc23)n(COCCO)c(=O)[nH]c1=O | MTT | 77.07 µM |
| Cc1c(Cc2ccccc2)nc(OC2CCCCC2)[nH]c1=O | - | 375 µM |
| COC(=O)[C@@H](NC(=O)Cc1ccccc1)[C@@H]1N[C@@H](C(=O)NC[C@@H](O)CN2C[C@H]3CCCC[C@H]3C[C@H]2C(=O)NC(C)(C)C)C(C)(C)S1 | - | >100 µM |
| O=C1CCC(c2ccccc2)C(=O)N1CCCCN1CCN(c2ccccn2)CC1 | MTT | >100 µM |
| NC(N)=NCCNc1ccc2[nH]ccc2c1.O=S(O)O | MTT | 77.68 µM |
| CCCCOc1nc(Cc2ccccc2)c(CC)c(=O)[nH]1 | - | 185 µM |
| CCc1c(Sc2ccc3ccccc3c2)n(COCc2ccccc2)c(=O)[nH]c1=O | MTT | 154.5 µM |
| CCCN(C)C(=O)Oc1nsnc1-c1c(Cl)ccc(C(N)=O)c1Cl | - | 166 µM |
| Oc1ccc([C@H]2Oc3cc(O)ccc3[C@@H](c3c(O)cc(O)c4c3O[C@H](c3ccc(O)cc3)[C@H](O)C4)[C@@H]2O)cc1 | MTT | >333 µM |
| CC(C)(C)NC(=O)[C@@H]1C[C@@H]2CCCC[C@@H]2CN1CC(O)CNC(=O)[C@@H]1N[C@@H]([C@H](NC(=O)Cc2ccccc2)C(=O)NCCNC(=O)OC(C)(C)C)SC1(C)C | - | >100 µM |
| O=C1/C(=C/c2ccc([N+](=O)[O-])c(O)c2)CN(Cc2ccccc2)C/C1=C\c1ccc([N+](=O)[O-])c(O)c1 | MTT | 3.5 µM |
| CCNC(=O)[C@@H](NC(=O)Cc1ccccc1)[C@@H]1N[C@@H](C(=O)NCCNC(=O)[C@@H]2N[C@@H]([C@H](NC(=O)Cc3ccccc3)C(=O)NCC)SC2(C)C)C(C)(C)S1 | - | ≥100 µM |
| CCCCCCCCCCCCCCCC(=O)O | MTT | >333 µM |
| CCCCCCCC/C=C/C(=O)O[C@@H]1[C@@H](C)[C@@]2(O)[C@@H](C=C(COC(C)=O)C[C@@]3(O)C(=O)C(C)=C[C@@H]23)[C@@H]2C(C)(C)[C@]12OC(C)=O | - | >500 µg/mL |
| Cc1cn([C@H]2C[C@H](N=[N+]=[N-])[C@@H](CO)O2)c(=O)[nH]c1=O | - | 4.81 µM |
| CC(C)Nc1cccnc1N1CCN(C(=O)c2cc3cc(NS(C)(=O)=O)ccc3[nH]2)CC1 | MTT | >4.38 µM |
| CCOC(=O)CC1C/C(=C\c2ccc(O)c(O)c2)C(=O)/C(=C/c2ccc(O)c(O)c2)C1 | MTT | 5 µM |
| Cc1cn([C@H]2C[C@H](N=[N+]=[N-])[C@@H](CO)O2)c(=O)[nH]c1=O | MTT | >93.55 µM |
| CCCN(C)C(=O)Oc1nsnc1-c1c(Cl)ccc(OCOC)c1Cl | - | 43 µM |
| CCc1c(Cc2ccccc2)nc(OC(C)C)[nH]c1=O | - | 193 µM |
| COc1ccccc1N1CCN(CCCCN2C(=O)CCC(c3ccccc3)C2=O)CC1 | MTT | >100 µM |
| CC[C@H](C)C(=O)O[C@H]1C[C@@H](C)C=C2C=C[C@H](C)[C@H](CC[C@@H]3C[C@@H](O)CC(=O)O3)[C@H]21 | - | 0.8–5.6 µg/mL |
| CCCCCCCCCCCCCC(=O)O[C@@H]1[C@@H](C)[C@@]2(O)[C@@H](C=C(COC(C)=O)C[C@]3(OC)C(=O)C(C)=C[C@@H]23)[C@@H]2C(C)(C)[C@]12OC(C)=O | - | >15.6 µg/mL |
| c1cc2cc(NCCNC3=NCCCN3)ccc2[nH]1 | MTT | 203 µM |
| O=C(CSc1nncnc1-c1cccc2ccccc12)Nc1ccccc1Br | MTT | 87 µM |
| CC(=O)O[C@@H]1[C@@H](C)[C@@]2(O)[C@@H](C=C(CO)C[C@]3(O)C(=O)C(C)=C[C@@H]23)[C@@H]2C(C)(C)[C@]12O | - | >500 µg/mL |
| Clc1cccc(C=Nc2nsc3ccccc23)c1 | MTT | 9 µM |
| CCCN(C)C(=O)Oc1nsnc1-c1c(Cl)ccc(C#N)c1Cl | - | 66 µM |
| O=C1CCC(c2ccccc2)C(=O)N1CCCN1CCN(c2ccccn2)CC1 | MTT | >100 µM |
| CCCc1c(Sc2cccc3ccccc23)n(COCc2ccccc2)c(=O)[nH]c1=O | MTT | 32.57 µM |
| CCNC(N)=NCCNc1ccc2[nH]ccc2c1 | MTT | 47.28 µM |
| Cc1c(Cc2ccccc2)[nH]c(=O)[nH]c1=O | - | >1000 µM |
| NCC(=O)Nc1ccc(Cl)cc1C(=O)c1ccc[nH]1 | - | >1.7 µg/mL |
| Cc1cn([C@H]2C[C@H](N=[N+]=[N-])[C@@H](CO)O2)c(=O)[nH]c1=O | - | 4.6 µM |
| CCOc1ccc2nc(/N=C/c3ccc(O)cc3)sc2c1 | MTT | ≥100 µM |
| O=C(CSc1nncnc1-c1cccc2ccccc12)Nc1ccccc1Cl | MTT | 63 µM |
| NC(=NCCCNc1ccc2[nH]ccc2c1)N[N+](=O)[O-] | MTT | ≥360 µM |
| COc1ccc(/C=N/c2nccs2)cc1 | MTT | >100 µM |
| Cc1cn([C@H]2C[C@H](N=[N+]=[N-])[C@@H](CO)O2)c(=O)[nH]c1=O | - | >1 µM |
| O=C1CCC(c2ccccc2)C(=O)N1 | MTT | >100 µM |
| Nc1nc(N)c2ncn([C@H]3C=C[C@@H](OCP(=O)(O)O)O3)c2n1 | - | >100 µM |
| COc1ccc(N(C)C(=O)[C@@H]2Cc3cc(F)cc(c3)/C=C\Cc3[nH]c4ccccc4c3CC(=O)N2)cc1 | ATP / luminescence | >34.8 µM |
| CCc1c(Sc2cccc3ccccc23)n(COCc2cccc(F)c2)c(=O)[nH]c1=O | MTT | 31.47 µM |
| Cc1c(Cc2ccccc2)nc(OC(C)C)[nH]c1=O | - | 243 µM |
| CC(=O)OCC1=C[C@H]2[C@@H]3C(C)(C)[C@]3(OC(C)=O)[C@H](O)[C@@H](C)[C@]2(O)[C@@H]2C=C(C)C(=O)[C@]2(O)C1 | - | >1000 µg/mL |
| O=C1/C(=C/c2ccc(O)c([N+](=O)[O-])c2)CNC/C1=C\c1ccc(O)c([N+](=O)[O-])c1 | MTT | 11 µM |
| CCc1c(Sc2ccc3ccccc3c2Cl)n(COC)c(=O)[nH]c1=O | MTT | 192.9 µM |
| CCCN(C)C(=O)Oc1nsnc1-c1c(Cl)ccc(OC)c1Cl | - | 103 µM |
| CC(=O)c1ccc(C)cc1NC(C(N)=O)c1c(Cl)cccc1Cl | - | 33 µM |
| CC(C)c1c(Sc2cccc3ccccc23)n(COCCc2ccccc2)c(=O)[nH]c1=O | MTT | 31.4 µM |

A second listing of 7 rows from above:

SMILES | read by | result
CCNC(=O)[C@@H](NC(=O)Cc1ccccc1)[C@@H]1N[C@@H](C(=O)NCCNC(=O)[C@@H]2N[C@@H]([C@H](NC(=O)Cc3ccccc3)C(=O)NCC)SC2(C)C)C(C)(C)S1 | - | ≥100 µM
Cc1c(Cc2ccccc2)nc(OC(C)C)[nH]c1=O | - | 243 µM
CCCCCCCCCCCCCCCC(=O)O | MTT | >333 µM
CCCCCOc1nc(Cc2ccccc2)c(C)c(=O)[nH]1 | - | 195 µM
O=c1[nH]c(=O)n([C@H]2C[C@H](F)[C@@H](CO)O2)cc1CO | - | 134 µM
NCC(=O)Nc1ccc(Cl)cc1C(=O)c1ccc[nH]1 | - | >1.7 µg/mL
Cc1cn([C@H]2C[C@H](N=[N+]=[N-])[C@@H](CO)O2)c(=O)[nH]c1=O | - | 1 µg/mL

Rows are shuffled and stem from different studies. Blank or dashed fields: not listed here. CCn is the concentration with n% toxicity to the cells.